Measured values as given in patent EP4821928A1, “BICYCLIC HETEROCYCLIC COMPOUND AND FUNGICIDE FOR AGRICULTURAL AND HORTICULTURAL USE CONTAINING SAME AS ACTIVE INGREDIENT” (dated 2026).

What was measured:
Magnaporthe grisea = assay: Rice blast disease pot test (Test Example A); details: for Rice blast disease pot test (control value): 250 ppm sprayed, 2.5 ml/pot, rice variety Sachikaze, degree of disease development 6 to 8 days after inoculation
Protocol: Seeds of test plants (rice variety: Sachikaze) were planted and then cultivated until the second leaves appeared. In the test, each synthesized compound was dissolved in a dimethyl sulfoxide-methanol mixed solution (volume ratio: 9/1) and diluted into a concentration of 250 ppm with ion exchange water to obtain a chemical. The obtained chemical was sprayed to the test plants (2.5 ml/pot). After drying of the chemical, the plants were inoculated by spraying of 3 to 5 × 10^4 organisms/ml of a conidium suspension of Magnaporthe grisea. The plants thus inoculated were left at room temperature of 23 to 25°C in a moist chamber for approximately 24 hours to promote the onset of the disease. The degree of disease development was investigated 6 to 8 days after inoculation, and effects of the chemical were evaluated.
(§1) The degrees of disease development in these Test Examples were evaluated by 0.05 when the degree of disease development in a plant having no onset of the disease was defined as 0 and the degree of disease development in a plant in a group without chemical treatment was defined as 3. From the degree of disease development, a control value was calculated according to the following expression.
(§2) Control value = 100{1−(n/3)} [formula] N = Degree of disease development in each chemical treatment group.

[1] = tested on: Gray mold fungus (Botrytis cinerea); assay: Gray mold anti-germ test (Test Example C); details: for Gray mold anti-germ test (rate of inhibition): 50 ppm/well, Czapek-dox broth, 25°C for 3 days, absorbance 600 nm
Protocol: (§3) Gray mold fungus (Botrytis cinerea) Conidia were suspended in Czapek-dox broth and a suspension of 1 × 10^5 spores were prepared. The prepared spore suspension was seeded at 100 µl/well to a 96-well multiplate. In the test, each compound was dissolved in a dimethyl sulfoxide-methanol mixed solution (volume ratio: 9/1) and dispensed at 50 ppm/well. The absorbance of each well was measured at a wavelength of 600 nm using a photometer. The multiplate was incubated at 25°C for 3 days, followed by absorbance measurement again. The difference in absorbance between the treatment day and 3 days later was calculated, and the rate of inhibition was calculated from the ratio between the treatment group and the non-treatment group.

[2] = tested on: Fusarium blight fungus (Fusarium graminearum); assay: Fusarium blight anti-germ test (Test Example D); details: for Fusarium blight anti-germ test (rate of inhibition): 50 ppm/well, Czapek-dox broth, 25°C for 3 days, absorbance 600 nm
Protocol: as §3, with “Fusarium blight” for “Gray mold”, “(Fusarium graminearum)” for “(Botrytis cinerea)”

Botrytis cinerea = assay: Tomato gray mold pot test (Test Example B); details: for Tomato gray mold pot test (control value): 250 ppm sprayed, 2.5 ml/pot, tomato variety Oogata Fukuju, degree of disease development 2 to 3 days after inoculation
Protocol: Seeds of test plants (tomato variety: Oogata Fukuju) were planted and then cultivated until three first leaves appeared. In the test, each compound was dissolved in a dimethyl sulfoxide-methanol mixed solution (volume ratio: 9/1) and diluted into a concentration of 250 ppm with ion exchange water to obtain a chemical. The obtained chemical was sprayed to the test plants (2.5 ml/pot). After drying of the chemical, the plants were inoculated by spraying of 3 to 6 × 10^5 organisms/ml of a conidium suspension of Botrytis cinerea. The plants thus inoculated were left at room temperature of 23 to 25°C in a moist chamber for approximately 48 hours to promote the onset of the disease. The degree of disease development was investigated 2 to 3 days after inoculation, and effects of the chemical were evaluated.
as §1, §2

[3] = tested on: Anthracnose fungus (Glomerella cingulata); assay: Anthracnose anti-germ test (Test Example E); details: for Anthracnose anti-germ test (rate of inhibition): 50 ppm/well, Czapek-dox broth, 25°C for 3 days, absorbance 600 nm
Protocol: as §3, with “The” for “Gray mold fungus (Botrytis cinerea) Conidia were suspended in Czapek-dox broth and a suspension of 1 × 10^5 spores were prepared. The”

[4] = tested on: Speckled leaf blotch fungus (Septoria tritici); assay: Speckled leaf blotch anti-germ test (Test Example F); details: for Speckled leaf blotch anti-germ test (rate of inhibition): 50 ppm/well, Czapek-dox broth, 25°C for 3 days, absorbance 600 nm
Protocol: as §3, with “Speckled leaf blotch” for “Gray mold”, “(Septoria tritici)” for “(Botrytis cinerea)”

Row | Structure (SMILES) | Rice blast disease pot test (control value) (Magnaporthe grisea) | Gray mold anti-germ test (rate of inhibition) [1] | Fusarium blight anti-germ test (rate of inhibition) [2] | Tomato gray mold pot test (control value) (Botrytis cinerea) | Anthracnose anti-germ test (rate of inhibition) [3] | Speckled leaf blotch anti-germ test (rate of inhibition) [4] | control value (Magnaporthe grisea; Test Example A, rice blast disease pot test) | rate of inhibition ([1]; Test Example C, gray mold anti-germ test) | rate of inhibition ([2]; Test Example D, Fusarium blight anti-germ test) | control value (Botrytis cinerea; Test Example B, tomato gray mold pot test) | rate of inhibition ([3]; Test Example E, anthracnose anti-germ test) | rate of inhibition ([4]; Test Example F, speckled leaf blotch anti-germ test)
1 | Cc1cccc2c1OC1(CCCC1)N=C2n1cnc2c(C)c(C)ccc21 | H (H represents a control value or rate of inhibition of larger than 50%) | H (H represents a control value or rate of inhibition of larger than 50%) | L (L represents a control value or rate of inhibition of 50% or less) | H (H represents a control value or rate of inhibition of larger than 50%) | H (H represents a control value or rate of inhibition of larger than 50%) | L (L represents a control value or rate of inhibition of 50% or less) | – | – | – | – | – | –
2 | Cc1ccc2c(c1)OC(C)(C)N=C2n1cnc2c(F)cccc21 | H (H represents a control value or rate of inhibition of larger than 50%) | H (H represents a control value or rate of inhibition of larger than 50%) | H (H represents a control value or rate of inhibition of larger than 50%) | H (H represents a control value or rate of inhibition of larger than 50%) | H (H represents a control value or rate of inhibition of larger than 50%) | L (L represents a control value or rate of inhibition of 50% or less) | – | – | – | – | – | –
3 | COCCC1(C)N=C(n2cnc3c(C)c(C)ccc32)c2ccc(C)cc2O1 (stereo not drawn) | H (H represents a control value or rate of inhibition of larger than 50%) | H (H represents a control value or rate of inhibition of larger than 50%) | H (H represents a control value or rate of inhibition of larger than 50%) | H (H represents a control value or rate of inhibition of larger than 50%) | H (H represents a control value or rate of inhibition of larger than 50%) | H (H represents a control value or rate of inhibition of larger than 50%) | – | – | – | – | – | –
4 | CCOC(=O)CC1(C)N=C(n2cnc3c(C)c(C)ccc32)c2ccc(C)cc2O1 (stereo not drawn) | H (H represents a control value or rate of inhibition of larger than 50%) | H (H represents a control value or rate of inhibition of larger than 50%) | H (H represents a control value or rate of inhibition of larger than 50%) | H (H represents a control value or rate of inhibition of larger than 50%) | H (H represents a control value or rate of inhibition of larger than 50%) | L (L represents a control value or rate of inhibition of 50% or less) | – | – | – | – | – | –
5 | Cc1ccc2c(c1)OC(C)(CC(=O)O)N=C2n1cnc2c(C)c(C)ccc21 (stereo not drawn) | H (H represents a control value or rate of inhibition of larger than 50%) | L (L represents a control value or rate of inhibition of 50% or less) | L (L represents a control value or rate of inhibition of 50% or less) | L (L represents a control value or rate of inhibition of 50% or less) | L (L represents a control value or rate of inhibition of 50% or less) | L (L represents a control value or rate of inhibition of 50% or less) | – | – | – | – | – | –
6 | Cc1cccc2c1OC(C)(C)N=C2n1cnc2c(Br)cccc21 | H (H represents a control value or rate of inhibition of larger than 50%) | H (H represents a control value or rate of inhibition of larger than 50%) | L (L represents a control value or rate of inhibition of 50% or less) | H (H represents a control value or rate of inhibition of larger than 50%) | H (H represents a control value or rate of inhibition of larger than 50%) | H (H represents a control value or rate of inhibition of larger than 50%) | – | – | – | – | – | –
7 | CCc1cccc2c1ncn2C1=NC(C)(C)Oc2c(C)cccc21 | H (H represents a control value or rate of inhibition of larger than 50%) | H (H represents a control value or rate of inhibition of larger than 50%) | L (L represents a control value or rate of inhibition of 50% or less) | H (H represents a control value or rate of inhibition of larger than 50%) | H (H represents a control value or rate of inhibition of larger than 50%) | H (H represents a control value or rate of inhibition of larger than 50%) | – | – | – | – | – | –
8 | Cc1c(Cl)ccc2c1ncn2C1=NC(C)(C)Oc2cc(F)ccc21 | L (L represents a control value or rate of inhibition of 50% or less) | L (L represents a control value or rate of inhibition of 50% or less) | L (L represents a control value or rate of inhibition of 50% or less) | L (L represents a control value or rate of inhibition of 50% or less) | H (H represents a control value or rate of inhibition of larger than 50%) | L (L represents a control value or rate of inhibition of 50% or less) | – | – | – | – | – | –
9 | Cc1ccc2c(C3=NC(C)(C)Oc4ccccc43)cnn2c1C | H (H represents a control value or rate of inhibition of larger than 50%) | H (H represents a control value or rate of inhibition of larger than 50%) | H (H represents a control value or rate of inhibition of larger than 50%) | H (H represents a control value or rate of inhibition of larger than 50%) | H (H represents a control value or rate of inhibition of larger than 50%) | H (H represents a control value or rate of inhibition of larger than 50%) | – | – | – | – | – | –
10 | Cc1cccc2c(C3=NC(C)(C)Sc4c(F)cccc43)cnn12 | – | – | – | – | – | – | H (H represents a control value or rate of inhibition of larger than 50%) | H (H represents a control value or rate of inhibition of larger than 50%) | H (H represents a control value or rate of inhibition of larger than 50%) | H (H represents a control value or rate of inhibition of larger than 50%) | H (H represents a control value or rate of inhibition of larger than 50%) | H (H represents a control value or rate of inhibition of larger than 50%)
